Experimental findings from patent publication US20140302094A1 (UNIVERSITY OF EXETER, published 2014) are described below.

The data set concerns the molecule itself. Description: self-association (heptamer) seen on SDS-PAGE.

B1: NetB mutant W262A (W292A in SEQ ID NO:3) (other)
chain: SELNDINKIELKNLSGEIIKENGKEAIKYTSSDTASHKGWKATLSGTFIEDPHSDKKTALLNLEGFIPSDKQIFGSKYYGKMKWPETYRINVKSADVNNNIKIANSIPKNTIDKKDVSNSIGYSIGGNISVEGKTAGAGINASYNVQNTISYEQPDFRTIQRKDDANLASWDIKFVETKDGYNIDSYHAIYGNQLFMKSRLYNNGDKNFTDDRDLSTLISGGFSPNMALALTAPKNAKESVIIVEYQRFDNDYILNWETTQARGTNKLSSTSEYNEFMFKINWQDHKIEYYL
Consider B1, for which the binding result is listed as “binds”.
